Measured values from several laboratories, pooled; numbers as filed in NIAID ChemDB.

All rows: tests in culture; agent: Mycobacterium avium complex

A number after MIC or MFC names an inhibition level or a share of isolates. Lines come from different laboratories, so protocols vary.

smiles,strain or isolate,endpoint,result
CCCCC(=O)O[C@H]1[C@H](C)OC(O[C@H]2[C@H](C)[C@@H](O[C@@H]3O[C@H](C)C[C@H](N(C)C)[C@H]3O)C(C)(O)C[C@@H](C)/C(=N\OCCCOc3ccccc3)[C@H](C)[C@@H](O)[C@](C)(O)[C@@H](CC)OC(=O)[C@@H]2C)C[C@@]1(C)OC,20096 (clarithromycin-resistant),MIC,1.56 µg/mL
CC[C@H]1OC(=O)[C@H](C)[C@@H](O[C@H]2C[C@@](C)(OC)[C@@H](O)[C@H](C)O2)[C@H](C)[C@@H](O[C@@H]2O[C@H](C)C[C@H](N(C)C)[C@H]2O)[C@](C)(O)C[C@@H](C)CN(C)[C@H](C)[C@@H](O)[C@]1(C)O,25 isolates,MIC50,>8 µg/mL
CC[C@H]1OC(=O)[C@H](C)[C@@H](O[C@H]2C[C@@](C)(OC)[C@@H](O)[C@H](C)O2)[C@H](C)[C@@H](O[C@@H]2O[C@H](C)C[C@H](N(C)C)[C@H]2O)[C@](C)(OC)C[C@@H](C)C(=O)[C@H](C)[C@@H](O)[C@]1(C)O,N-93043,MIC,2 µg/mL
NC1CCN(c2c(F)cc3c(=O)c(C(=O)O)cn(C4CC4)c3c2Cl)C1,25 isolates,MBC90,>8 µg/mL
CCCCCCCCCCCCO/N=C1\[C@H](C)CC(C)(O)[C@H](O[C@@H]2O[C@H](C)C[C@H](N(C)C)[C@H]2O)[C@@H](C)[C@H](OC2C[C@@](C)(OC)[C@@H](O)[C@H](C)O2)[C@@H](C)C(=O)O[C@H](CC)[C@@](C)(O)[C@H](O)[C@H]1C,20039,MIC,25 µg/mL
CC1COc2c(N3CCN(C)CC3)c(F)cc3c(=O)c(C(=O)O)cn1c23,ATCC 35718,MBC,>8 µg/mL
CC[C@H]1OC(=O)[C@H](C)[C@@H](O[C@H]2C[C@@](C)(OC)[C@@H](O)[C@H](C)O2)[C@H](C)[C@@H](O[C@@H]2O[C@H](C)C[C@H](N(C)C)[C@H]2O)[C@](C)(O)C[C@@H](C)CN(C)[C@H](C)[C@@H](O)[C@]1(C)O,R,MIC,16 µg/mL
C[C@@H]1CN(c2c(F)c(N)c3c(=O)c(C(=O)O)cn(C4CC4)c3c2F)C[C@H](C)N1,N-319 (HIV-),MIC,2 µg/mL
O=C(N1CCC(CN=c2cc3n(-c4ccc(Cl)cc4)c4ccccc4nc-3cc2Nc2ccc(Cl)cc2)CC1)N1CC1,5 strains,MIC90,4 µg/mL
CO[C@H]1/C=C/O[C@@]2(C)Oc3c(C)c(O)c4c(=O)c(c5oc6cc(N7CCN(CC(C)C)CC7)cc(=O)c6nc5c4c3=C2O)NC(=O)/C(C)=C\C=C\[C@H](C)[C@H](O)[C@@H](C)[C@@H](O)[C@@H](C)[C@H](OC(C)=O)[C@@H]1C,N-269 (HIV-),MIC,0.1 µg/mL
CC[C@H]1OC(=O)[C@H](C)[C@@H](OC2C[C@@](C)(OC)[C@@H](O)[C@H](C)O2)[C@H](C)[C@@H](O[C@@H]2O[C@H](C)C[C@H](N(C)C)[C@H]2O)C(C)(O)C[C@@H](C)/C(=N\OCCCC2CCCCC2)[C@H](C)[C@@H](O)[C@]1(C)O,20096,MIC,6.25 µg/mL
CC[C@H]1OC(=O)[C@H](C)[C@@H](O[C@H]2C[C@@](C)(OC)[C@@H](OC(C)=O)[C@H](C)O2)[C@H](C)[C@@H](O[C@@H]2O[C@H](C)C[C@H](N(C)C)[C@H]2OC(=O)NNCc2ccccc2[N+](=O)[O-])C(C)(O)C[C@@H](C)/C(=N\OCCCC2CCCCC2)[C@H](C)[C@@H](O)[C@]1(C)O,20096 (clarithromycin-resistant),MIC,0.39 µg/mL
CC1CN(c2cc3c(cc2F)c(=O)c(C(=O)O)cn3-c2ccc(F)cc2F)CCN1,ATCC 35718,MBC,>8 µg/mL
CC[C@H]1OC(=O)[C@H](C)[C@@H](OC(=O)CCCCCc2ccccc2)[C@H](C)[C@@H](O[C@@H]2O[C@H](C)C[C@H](N(C)C)[C@H]2O)C(C)(O)C[C@@H](C)/C(=N\OCCCOc2ccccc2)[C@H](C)[C@@H](O)[C@]1(C)O,20039 (clarithromycin-susceptible),MIC,6.25 µg/mL
Cc1noc(NS(=O)(=O)c2ccc(N)cc2)c1C,F-2,MIC,25 µg/mL
CCCCCCO/N=C1\[C@H](C)CC(C)(O)[C@H](O[C@@H]2O[C@H](C)C[C@H](N(C)C)[C@H]2O)[C@@H](C)[C@H](OC2C[C@@](C)(OC)[C@@H](O)[C@H](C)O2)[C@@H](C)C(=O)O[C@H](CC)[C@@](C)(O)[C@H](O)[C@H]1C,20039,MIC,1.56 µg/mL
COc1cccc2c1nc1cccc(OC)c1[n+]2[O-],109,MIC,≥16 µg/mL
CC[C@H]1OC(=O)[C@H](C)[C@@H](OC2C[C@@](C)(OC)[C@@H](O)[C@H](C)O2)[C@H](C)[C@@H](O[C@@H]2O[C@H](C)C[C@H](N(C)C)[C@H]2O)C(C)(O)C[C@@H](C)/C(=N\OCCCCOc2ccccc2)[C@H](C)[C@@H](O)[C@]1(C)O,20096,MIC,6.25 µg/mL
C[C@H]1C[C@H](N)CN1c1cc2c(cc1F)c(=O)c(C(=O)O)cn2-c1ccc(F)cc1F,ATCC 35718,MBC,>8 µg/mL
CC[C@H]1OC(=O)[C@H](C)[C@@H](OC2C[C@@](C)(OC)[C@@H](O)[C@H](C)O2)[C@H](C)[C@@H](O[C@@H]2O[C@H](C)C[C@H](N(C)C)[C@H]2O)C(C)(O)C[C@@H](C)/C(=N\OCCOc2ccccc2)[C@H](C)[C@@H](O)[C@]1(C)O,20096,MIC,25 µg/mL
COc1cccc2c1[n+]([O-])c1cccc(O)c1[n+]2[O-],5 strains,MIC90,0.25 µg/mL
CC[C@H]1OC(=O)[C@H](C)[C@@H](OC2C[C@@](C)(OC)[C@@H](O)[C@H](C)O2)[C@H](C)[C@@H](O[C@@H]2O[C@H](C)C[C@H](N(C)C)[C@H]2O)C(C)(OC)C[C@@H](C)/C(=N\OCCCOc2ccccc2)[C@H](C)[C@@H](O)[C@]1(C)O,20092,MIC,12.5 µg/mL
CO[C@H]1/C=C/O[C@@]2(C)Oc3c(C)c(O)c4c(O)c(c5c(c4c3C2=O)NC2(CCN(CC(C)C)CC2)N=5)=NC(=O)/C(C)=C\C=C\[C@H](C)[C@H](O)[C@@H](C)[C@@H](O)[C@@H](C)[C@H](OC(C)=O)[C@@H]1C,N-269 (HIV-),MIC,0.125 µg/mL
CC[C@H]1OC(=O)[C@H](C)[C@@H](OC2C[C@@](C)(OC)[C@@H](O)[C@H](C)O2)[C@H](C)[C@@H](O[C@@H]2O[C@H](C)C[C@H](N(C)C)[C@H]2O)C(C)(O)C[C@@H](C)/C(=N\OCCCCc2ccccc2)[C@H](C)[C@@H](O)[C@]1(C)O,20092,MIC,6.25 µg/mL
C[C@@H]1CN(c2c(F)c(N)c3c(=O)c(C(=O)O)cn(C4CC4)c3c2F)C[C@H](C)N1,ATCC 15769,MIC,0.5 µg/mL
CC[C@H]1OC(=O)[C@H](C)[C@@H](OC(=O)Cc2ccc[nH]2)[C@H](C)[C@@H](O[C@@H]2O[C@H](C)C[C@H](N(C)C)[C@H]2O)C(C)(O)C[C@@H](C)/C(=N\OCCCOc2ccccc2)[C@H](C)[C@@H](O)[C@]1(C)O,20096 (clarithromycin-resistant),MIC,6.25 µg/mL
CCCCCCCCCCCCCCO/N=C1\[C@H](C)CC(C)(O)[C@H](O[C@@H]2O[C@H](C)C[C@H](N(C)C)[C@H]2O)[C@@H](C)[C@H](OC2C[C@@](C)(OC)[C@@H](O)[C@H](C)O2)[C@@H](C)C(=O)O[C@H](CC)[C@@](C)(O)[C@H](O)[C@H]1C,20092,MIC,>50 µg/mL

The last 2 rows once more:

smiles	strain or isolate	endpoint	result
CC[C@H]1OC(=O)[C@H](C)[C@@H](OC(=O)Cc2ccc[nH]2)[C@H](C)[C@@H](O[C@@H]2O[C@H](C)C[C@H](N(C)C)[C@H]2O)C(C)(O)C[C@@H](C)/C(=N\OCCCOc2ccccc2)[C@H](C)[C@@H](O)[C@]1(C)O	20096 (clarithromycin-resistant)	MIC	6.25 µg/mL
CCCCCCCCCCCCCCO/N=C1\[C@H](C)CC(C)(O)[C@H](O[C@@H]2O[C@H](C)C[C@H](N(C)C)[C@H]2O)[C@@H](C)[C@H](OC2C[C@@](C)(OC)[C@@H](O)[C@H](C)O2)[C@@H](C)C(=O)O[C@H](CC)[C@@](C)(O)[C@H](O)[C@H]1C	20092	MIC	>50 µg/mL